Experimental data from PubChem BioAssay AID1448 (The Scripps Research Institute Molecular Screening Center, 2008).
Values joined by “and” are separate entries in the source; they are usually repeats but may differ in a detail not shown here. Equal values may be shown once. The list shows a part of the results, in another mix than the full data. Active and inactive are the calls of the source.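 How the source made its calls: active means activation above its plate's cutoff, the mean activation of the plate's test wells plus 3 SD (cut at about 12% in these data); inactive means the rest.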

Amino acid sequences for entries named in this document (tags omitted). A change or cut given only in a name is not applied to a line headed by its entry.
UniProt Q8TDD5: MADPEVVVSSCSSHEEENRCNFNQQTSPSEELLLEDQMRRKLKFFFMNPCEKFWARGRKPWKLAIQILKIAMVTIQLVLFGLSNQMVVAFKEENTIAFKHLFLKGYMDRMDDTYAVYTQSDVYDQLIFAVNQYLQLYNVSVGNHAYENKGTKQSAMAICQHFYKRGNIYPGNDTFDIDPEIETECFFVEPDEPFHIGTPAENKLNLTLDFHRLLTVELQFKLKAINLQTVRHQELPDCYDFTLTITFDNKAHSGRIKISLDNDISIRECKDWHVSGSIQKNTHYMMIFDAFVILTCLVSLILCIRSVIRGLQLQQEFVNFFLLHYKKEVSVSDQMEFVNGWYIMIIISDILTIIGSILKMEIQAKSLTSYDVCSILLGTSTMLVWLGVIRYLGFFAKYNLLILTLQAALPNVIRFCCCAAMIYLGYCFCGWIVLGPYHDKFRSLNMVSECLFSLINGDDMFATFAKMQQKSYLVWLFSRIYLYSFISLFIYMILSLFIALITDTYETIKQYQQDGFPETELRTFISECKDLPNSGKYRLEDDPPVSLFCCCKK

Target: Mucolipin-3 (Homo sapiens) (UniProt Q8TDD5)
Experiment: activators of mucolipin-3 cation channel – cell-based, HEK293 TRPML3-YFP, Fluo-8 calcium fluorescence, 3 µM, primary screen (AID 1448);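 further: 0% = DMSO only wells and 100% = carbachol wells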
Conditions: at 3 µM, active compounds read high, 100% = the carbachol control signal
Method in brief: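 system = HEK293 cells stably carrying human TRPML3-YFP | doses = one concentration, 3 µM nominal, 0.3% DMSO | timing = dye loading 1 h 37 °C then 30 min ambient, 125 s read | detection = Fluo-8 calcium dye fluorescence, ex 470-495, em 515-575 nm | benchmarks = high control carbachol 87 µM, low control DMSO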

SMILES | activation
COc1ccc(C2=NCC(CBr)S2)cc1 (stereo not given) | inactive: 0.33%
O=[N+]([O-])c1cc([N+](=O)[O-])c(CCNc2ccccc2)c([N+](=O)[O-])c1 | inactive: -0.3%
CCc1nc2c(n1)c1c(non1O)c1c2no[n+]1[O-] | inactive: 4.28%
Cc1ccc(NP(=O)(Oc2ccccc2)Oc2ccccc2)nc1 | inactive: -0.11%
CC(=O)N1C2C3N(C(C)=O)C1C1N(C(C)=O)C(C(N1C(C)=O)N3C(C)=O)N2C(C)=O | inactive: 0.58%
O=[N+]([O-])c1cccc2n[nH]nc12 | inactive: -0.2%
CCN(/C(=N/P(=O)(N1CCOCC1)N1CCOCC1)N1CCOCC1)c1ccc(OC)cc1 | inactive: 0.67%
C[N+]1=C2C=CC=CC=C2SC12C([N+](=O)[O-])=CC([N+](=O)[O-])=C[C-]2[N+](=O)[O-] (stereo not given) | inactive: 1.74%
Nc1ccc([As](=O)(O)c2ccc(N)cc2)cc1 | inactive: 0.05%
CC1CCN(C(=O)Oc2c(Cl)cc(Cl)c3cccnc23)CC1 | inactive: -0.36%
CN(C)C(=O)OCCc1n(C)cc[n+]1C | inactive: 0.61%
CC(C)=N/N=C(\N)N[N+](=O)[O-] | inactive: 0.57%
O=C(Nc1cc([As](=O)(O)O)ccc1O)c1ccccc1 | inactive: 0.85%
O=[N+]([O-])c1ncn(CCn2ncnc2[N+](=O)[O-])n1 | inactive: -0.4%
CC(C)(C)C(=O)NC(Sc1ccncn1)C(Cl)(Cl)Cl (stereo not given) | inactive: -0.11%
O=C(O)CNc1ccc([As](=O)(O)O)cc1 | inactive: 0.78%
O=[N+]([O-])c1cccc(NC2=NCC(CBr)S2)c1 (stereo not given) | inactive: 0.57%
O=P(Nc1nc2ccc(Cl)cc2s1)(c1ccccc1)c1ccccc1 | inactive: -0.72%
CC(=O)Nc1ccc([As](=O)(O)O)cc1 | inactive: 1.01%
O=C(O)c1ccccc1[As](=O)(O)O | inactive: 0.78%
Cc1ccc(NP(=O)(Oc2ccccc2F)Oc2ccccc2F)nc1 | inactive: 0.36%
Cc1cc(SC(NC(=O)c2ccc(F)cc2)C(Cl)(Cl)Cl)ncn1 (stereo not given) | inactive: -0.04%

SMILES | activation
CCOP(=O)(Nc1ccccc1)OCC | inactive: 0.42% and inactive: 0.61%
Nc1cccc2ccc([As](=O)(O)O)cc12 | inactive: 1.27%
CCN(N=Nc1nonc1N)c1nonc1N | inactive: 0.42%
Cc1ccc(N/C(=N/P(=O)(N2CCOCC2)N2CCOCC2)N2CCOCC2)cc1 | inactive: 3.37%
NC(=O)c1cc([N+](=O)[O-])cc([N+](=O)[O-])c1N | inactive: 0.34%
CN1CCCC(OC(=O)C(c2ccccc2)c2ccccc2)C1 (stereo not given) | inactive: -0.09%
Clc1ccc(Cl)c(NC2=NCC(CBr)S2)c1 (stereo not given) | inactive: 0.76%
Cc1ccc(OP(=O)(Nc2nccs2)Oc2ccc(C)cc2)cc1 | inactive: 0.38%
COc1ccccc1OP(=O)(Nc1ccc(C)cn1)Oc1ccccc1OC | inactive: 0.1%
O=C(NC(Sc1ccncn1)C(Cl)(Cl)Cl)c1ccccc1 (stereo not given) | inactive: 0.45%
Cc1c2non([O-])c-2c(C)[n+](=O)[n+]1[O-] | inactive: 1.39%
Oc1ccccc1CNc1ccccn1 | inactive: 0.13%
Nc1cc(N)c2nonc2c1[N+](=O)[O-] | inactive: 0.42%
CC(C)CC(=O)NC(Sc1ccc(Cl)cc1)C(Cl)(Cl)Cl (stereo not given) | inactive: -0.7%
CCOc1ccc(C2=NCC(CBr)S2)cc1 (stereo not given) | inactive: 0.84%
O=P1(Nc2nc3ccc(Cl)cc3s2)COc2ccccc2O1 (stereo not given) | inactive: 0.11%
CC(C)(C)C(=O)NC(Sc1ccccc1)C(Cl)(Cl)Cl (stereo not given) | inactive: 0.25%
CC(=O)Nc1ccc(Oc2c([N+](=O)[O-])cc([N+](=O)[O-])cc2[N+](=O)[O-])cc1 | inactive: 0.43%
CC(=O)Nc1ccc([As](=O)(O)O)c(O)c1 | inactive: 0.71%
Cc1ccc(NP(=O)(Oc2cccc(C)c2)Oc2cccc(C)c2)nc1 | inactive: -0.73%
CCOC(=O)NC(Sc1ccccc1)C(Cl)(Cl)Cl (stereo not given) | inactive: -0.28%
c1ccc(-c2nn[nH]n2)c(-c2nn[nH]n2)c1 | inactive: 0.18%

SMILES | activation
O=C(NC1CCS(=O)(=O)C1)NP(=S)(Oc1ccccc1)Oc1ccccc1 (stereo not given) | inactive: 0.1%
CCNC(=S)/N=C(\N)N[N+](=O)[O-] | inactive: 0.26%
CCC(=O)N1C2C3N(C(=O)CC)C1C1N(C(=O)CC)C(C(N1C(=O)CC)N3C(=O)CC)N2C(=O)CC | inactive: 0.06%
CC(=O)NC(SC(=S)N(CC(C)C)CC(C)C)C(Cl)(Cl)Cl (stereo not given) | inactive: 0.18%
Cc1ccc(OP(=O)(Nc2ccccn2)Oc2ccc(C)cc2)cc1 | inactive: 0.6%
COC(=O)c1cc2c(s1)N=C(c1ccccc1)N(C)P2(=O)N1CCOCC1 (stereo not given) | inactive: -0.11%
O=c1c2cc([N+](=O)[O-])ccc2[nH]c2c([N+](=O)[O-])cc([N+](=O)[O-])cc12 | active: 21.9%
CN(C)C(=O)Oc1noc2ccccc12 | inactive: 0.37%
Cc1ccccc1OP(=O)(Nc1ccccn1)Oc1ccccc1C | inactive: -0.59%
O=P(Nc1ccccn1)(c1ccc(Br)cc1)c1ccc(Br)cc1 | inactive: -1.3%
O=P(Nc1nc2ccccc2s1)(c1ccccc1)c1ccccc1 | inactive: -0.46%
O=[As](O)(c1ccccc1)c1ccc(O)cc1 | inactive: 0.39%
CC(=O)NC(SC(=S)N(C)C)C(Cl)(Cl)Cl (stereo not given) | inactive: 1.16%
O=[N+]([O-])c1ncn(CCn2cnc([N+](=O)[O-])n2)n1 | inactive: 0.86%
O=C(OC1CN2CCC1CC2)c1cccc(Cl)c1 (stereo not given) | inactive: 0.81%
C(Cc1nn[nH]n1)Cc1nn[nH]n1 | inactive: 1.04%
Nc1ccc([As](=O)(O)c2ccc([N+](=O)[O-])cc2)cc1 | inactive: 0.51%
O=P(Nc1nccs1)(c1ccccc1)c1ccccc1 | inactive: -0.36%
CC(C)C(=O)NC(Sc1ccccc1)C(Cl)(Cl)Cl (stereo not given) | inactive: -0.85%
c1nnnn1CCn1cnnn1 | inactive: 0.87%
O=P1(Nc2ccccn2)COc2ccccc2OC1 | inactive: 0.84%
